The values below come from EP0392666A2, “Anti-HIV compositions” (JOHNSON MATTHEY PUBLIC LIMITED COMPANY, priority 1989, dated 1990).

One data set relates to HIV-1 (HTLV-IIIB). In kind it is cell-based. The conditions noted are these: Selectivity Index, ratio of CD₅₀ to ED₅₀, 7200 min.
The test system of a further data set is HIV-2 (LAV-2 ROD). The data set can be described thus: MTT method anti-HIV screen in MT-4 cells infected with HIV-2. The following applies: Selectivity Index, ratio of CD₅₀ to ED₅₀, 7200 min. In kind it is cell-based. As for the experimental part: The compounds of the invention were tested in a screen by the MTT method (J. Virol. Methods 120: 309-321 [1988]). MT-4 cells (2.5 x 10⁴ /well) were infected with HIV-1 (HTLV-IIIB) or HIV-2 (LAV-2 ROD) at a concentration of 100 CCID₅₀ and incubated in the presence of various concentrations of the test compounds, which were added immediately after infection with the virus. After 5 days culture at 37°C in a CO₂ incubator, the number of viable cells was assessed by the MTT (tetrazolium) method. […] The potential therapeutic usefulness was assessed by calculating a Selectivity Index (SI) corresponding to the ratio of CD₅₀ to ED₅₀. A control test was performed using the known anti-HIV treatment AZT.

As for “Zn complex of 1,5,9,13-tetrazacyclohexaadecane (Cl⁻) [Compound H]”, the SI in the data set with HIV-1 (HTLV-IIIB) is listed as 4; in the data set with HIV-2 (LAV-2 ROD), <1.
Regarding “Zn complex of 1,4,8,12-tetrazacyclopentadecane (Cl⁻) [G]”, the values for the SI in the data set on HIV-1 (HTLV-IIIB) and in the data set on HIV-2 (LAV-2 ROD) were 28 and <1, respectively.
